Taken from: PubChem BioAssay AID624099 (ICCB-Longwood, 2012)
This is one part, drawn at random, of about 21,000 reagents. Of all reagents, 497 (2.4%) were called active. 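Higher z means weaker E2 silencing; only reporter increases were scored, and knock-downs that hurt cell survival may mask genuine repressor factors.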 The numbers tell different reagents against one gene apart. Reagent sequences are not shown.

- Aim: 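Knock-downs relieving repression by E2 of an HPV18 LCR luciferase reporter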 (primary screen)
- Cell system: human C33A cervical carcinoma cells (HPV-negative) stably expressing BPV1 E2 and an HPV18 LCR luciferase reporter
- Reagent: siRNA pool against human genes, 40 nM
- Time to read-out: 72 h
- Read-out: 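Per-well luciferase luminescence, z-scored on each plate against the plate mean and SD with control wells left out, then averaged across three replicate plates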
- Reading the numbers: mean z-score and z-score: higher = stronger reporter signal, weaker E2 silencing
- Hit rule: 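Hit if mean z-score reaches 2 and two or more of three replicate z-scores also reach 2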

target	reagent no.	mean z-score	z-score, replicate A	z-score, replicate B	z-score, replicate C	Call
AATBC (apoptosis associated transcript in bladder cancer)	1	1.22	1.39	1.03	1.24	inactive
VPS52 (VPS52 subunit of GARP complex)	1	-0.37	0.01	-0.5	-0.62	inactive
RPS26P40 (ribosomal protein S26 pseudogene 40)	1	0.04	-0.12	0.22	0	inactive
LCN10 (lipocalin 10)	1	-0.03	0	-0.21	0.14	inactive
DNM1P46 (dynamin 1 pseudogene 46)	1	0.6	0.33	0.5	0.97	inactive
CCDC69 (coiled-coil domain containing 69)	1	0.92	0.81	1.01	0.93	inactive
POU6F1 (POU class 6 homeobox 1)	1	-0.81	-0.89	-0.69	-0.86	inactive
ZGPAT (zinc finger CCCH-type and G-patch domain containing)	1	-0.95	-1.32	-0.46	-1.09	inactive
ANKRD13C (ankyrin repeat domain 13C)	1	-2.32	-1.73	-2.35	-2.88	inactive
STK32C (serine/threonine kinase 32C)	1	0.86	1.04	0.86	0.67	inactive
S100A16 (S100 calcium binding protein A16)	1	0.08	-0.25	0.18	0.31	inactive
NOP14 (NOP14 nucleolar protein)	1	-0.4	-0.41	-0.26	-0.52	inactive
LOC346521 (retired record)	1	-0.32	0.04	-0.71	-0.28	inactive
PBXIP1 (PBX homeobox interacting protein 1)	1	1.3	2	1.12	0.79	inactive
CASP7 (caspase 7)	1	0.45	-0.07	0.61	0.81	inactive
ZFC3H1 (zinc finger C3H1-type containing)	1	-0.98	-0.77	-1.05	-1.13	inactive
ATCAY (ATCAY kinesin light chain interacting caytaxin)	1	0.95	1.24	0.83	0.77	inactive
GRAMD4 (GRAM domain containing 4)	1	0.21	-0.02	0.06	0.59	inactive
LOC402675 (retired record)	1	0.9	0.47	1.23	1.01	inactive
NDUFS8 (NADH:ubiquinone oxidoreductase core subunit S8)	1	-1.32	-0.97	-1.47	-1.53	inactive
ADGRD2 (adhesion G protein-coupled receptor D2)	1	-0.08	0.1	-0.25	-0.1	inactive
ABHD16A (abhydrolase domain containing 16A, phospholipase)	1	1.41	1.78	1.26	1.2	inactive
TAOK3 (TAO kinase 3)	1	-0.08	-0.1	-0.14	0	inactive
PIEZO2 (piezo type mechanosensitive ion channel component 2)	1	0.03	0.32	0.1	-0.33	inactive
PIEZO2 (piezo type mechanosensitive ion channel component 2)	2	-0.43	-0.52	-0.25	-0.52	inactive
PIEZO2 (piezo type mechanosensitive ion channel component 2)	3	-1.03	-1.13	-0.73	-1.23	inactive
LOC285110 (retired record)	1	-0.25	-0.01	-0.37	-0.37	inactive
ENTHD1 (ENTH domain containing 1)	1	0.05	-0.18	0.22	0.09	inactive
LOC101928906	1	0.72	0.76	0.56	0.86	inactive
ADGRG5 (adhesion G protein-coupled receptor G5)	1	2.44	2.46	2.22	2.65	active
CIB2 (calcium and integrin binding family member 2)	1	-0.22	0.07	-0.21	-0.53	inactive
LRRC56 (leucine rich repeat containing 56)	1	-1.17	-1.15	-1.23	-1.12	inactive
CSF2RA (colony stimulating factor 2 receptor subunit alpha)	1	-0.73	-0.78	-0.79	-0.63	inactive
SUMO4 (small ubiquitin like modifier 4)	1	2.12	2.35	2.02	1.98	active
AK1 (adenylate kinase 1)	1	2.03	2.21	2.16	1.72	active
DHFRP3 (dihydrofolate reductase pseudogene 3)	1	0.18	0.24	0.29	0.01	inactive
SNX12 (sorting nexin 12)	1	0.49	0.73	0.4	0.34	inactive

Continued, starting with the last 6 of the part before.
target	reagent no.	mean z-score	z-score, replicate A	z-score, replicate B	z-score, replicate C	Call
LRRC56 (leucine rich repeat containing 56)	1	-1.17	-1.15	-1.23	-1.12	inactive
CSF2RA (colony stimulating factor 2 receptor subunit alpha)	1	-0.73	-0.78	-0.79	-0.63	inactive
SUMO4 (small ubiquitin like modifier 4)	1	2.12	2.35	2.02	1.98	active
AK1 (adenylate kinase 1)	1	2.03	2.21	2.16	1.72	active
DHFRP3 (dihydrofolate reductase pseudogene 3)	1	0.18	0.24	0.29	0.01	inactive
SNX12 (sorting nexin 12)	1	0.49	0.73	0.4	0.34	inactive
ZNF98 (zinc finger protein 98)	1	-1.01	-0.89	-1.12	-1.02	inactive
RPL34-DT (RPL34 divergent transcript)	1	-1.95	-2.32	-1.75	-1.78	inactive
RBL2 (RB transcriptional corepressor like 2)	1	0.08	0.02	0.43	-0.21	inactive
WFDC3 (WAP four-disulfide core domain 3)	1	1.14	1.04	1.21	1.16	inactive
MRPS24 (mitochondrial ribosomal protein S24)	1	-0.36	-0.31	-0.51	-0.27	inactive
MAST1 (microtubule associated serine/threonine kinase 1)	1	-0.49	-0.32	-0.7	-0.45	inactive
C16orf46 (chromosome 16 open reading frame 46)	1	0.9	1.19	0.34	1.17	inactive
DPH3 (diphthamide biosynthesis 3)	1	-0.62	-0.74	-0.45	-0.68	inactive
CTAG1B (cancer/testis antigen 1B)	1	-0.88	-0.77	-1.38	-0.48	inactive
CACHD1 (cache domain containing 1)	1	1.06	1.49	0.98	0.69	inactive
IHO1 (interactor of HORMAD1 1)	1	0.39	0.37	0.48	0.31	inactive
VPS37B (VPS37B subunit of ESCRT-I)	1	0.42	0.16	0.4	0.69	inactive
LYZL2 (lysozyme like 2)	1	-1.33	-1.21	-1.34	-1.44	inactive
VSTM2A (V-set and transmembrane domain containing 2A)	1	-0.78	-0.85	-0.7	-0.79	inactive
NETO2 (neuropilin and tolloid like 2)	1	-0.49	-0.73	-0.52	-0.21	inactive
CADM2 (cell adhesion molecule 2)	1	0.4	0.29	0.61	0.31	inactive
DTHD1 (death domain containing 1)	1	-0.63	-0.43	-0.7	-0.76	inactive
FAM182A (family with sequence similarity 182 member A)	1	-1.35	-1.47	-1.47	-1.09	inactive
DPP3 (dipeptidyl peptidase 3)	1	0.24	-0.01	0.48	0.25	inactive
SLC4A4	1	-0.18	-0.37	-0.14	-0.03	inactive
